Measured values from several laboratories, pooled; numbers as filed in NIAID ChemDB.

Common to all: tests in culture; species: HIV-1

Lines come from different laboratories, so protocols vary. Blank or dashed fields: not listed here. ECn is the concentration giving n% inhibition of infection, replication or growth. Fold resistance has wild type as its base.

| SMILES | method | measure | changes | strain | cell line | result |
|---|---|---|---|---|---|---|
| O=C(COc1ccc(Cl)cc1C(=O)c1ccccc1)Nc1ccc2cn[nH]c2c1 | β-galactosidase | fold resistance | RT-K103N | HXB2 | HeLa + HELA CD4+ | ~1 |
| CC(C)C1=C2[C@H]3CC[C@@H]4[C@@]5(C)CC[C@H](OC(=O)[C@H]6C[C@@H](C(=O)O)C6(C)C)C(C)(C)[C@@H]5CC[C@@]4(C)[C@]3(C)CC[C@@]2(CCN(CCN(C)C)C(=O)c2ccncn2)CC1=O | p24 / ELISA | EC50 | - | 92HT599 | MT-2 | <1 µM |
| CC(C)CN(CC(O)CN(CC(C)C)S(=O)(=O)c1ccc([N+](=O)[O-])cc1)S(=O)(=O)c1ccccc1 | p24 | EC90 | - | IIIB | CEM | 1 µM |
| Cc1cc2[nH]cnc2cc1NC(=O)COc1ccc(Cl)cc1C(=O)c1cc(F)cc(C(F)(F)F)c1 | β-galactosidase | fold resistance | RT-K101E | HXB2 | HeLa + HELA CD4+ | ~1 |
| CC(C)C1=C2[C@H]3CC[C@@H]4[C@@]5(C)CC[C@H](OC(=O)[C@H]6C[C@@H](C(=O)O)C6(C)C)C(C)(C)[C@@H]5CC[C@@]4(C)[C@]3(C)CC[C@@]2([C@@H](O)CNCC2(N)CCCCC2)CC1=O | p24 / ELISA | EC50 | - | 92HT599 | MT-2 | <1 µM |
| Cc1cc(S(N)(=O)=O)ccc1NC(=O)COc1ccc(Cl)cc1C(=O)c1cc(F)cc(C#N)c1 | β-galactosidase | fold resistance | RT-Y181C | HXB2 | HeLa + HELA CD4+ | ~1 |
| O=C1Nc2ccc(F)c(F)c2[C@@](/C=C/C2CC2)(C(F)(F)F)N1 | - | EC90 | RT-L100I | - | - | 0.007 µM |
| COc1ccc(S(=O)(=O)N(CC(C)C)C[C@@H](O)CCN(CC2CCCC2)S(=O)(=O)Cc2cccc3n[nH]nc23)cc1 | p24 | EC90 | - | IIIB | CEM | 1 µM |
| O=C1Nc2ccc(Cl)cc2[C@@](/C=C/C2CC2)(C(F)(F)F)N1 | - | fold resistance | RT-G190S | - | - | 60 |
| Cc1cc(S(N)(=O)=O)ccc1NC(=O)COc1ccc(Cl)cc1C(=O)c1cc(Cl)cc(Cl)c1 | β-galactosidase | fold resistance | RT-K103N Y181C | HXB2 (RT-K103N Y181C) Recombinant | HeLa + HELA CD4+ | ~1 |
| Cc1ccc(C)n1-c1ccc(C(=O)O)c(O)c1 | luciferase / cell fusion | EC90 | - | 93BR020 X4R5 CLADE F | PBMC/5.25M7 | 29.42 µM |
| CC(C)C1=C2[C@H]3CC[C@@H]4[C@@]5(C)CC[C@H](OC(=O)[C@H]6C[C@@H](C(=O)O)C6(C)C)C(C)(C)[C@@H]5CC[C@@]4(C)[C@]3(C)CC[C@@]2(CC(=O)NCC(C)(CCCN)NC(=O)c2ccc(Cl)cc2)CC1=O | p24 / ELISA | EC50 | - | 92HT599 | MT-2 | <1 µM |
| CCc1cc(C#N)cc(C(=O)c2cc(Cl)ccc2OCC(=O)Nc2ccc(S(N)(=O)=O)cc2C)c1 | β-galactosidase | fold resistance | RT-P236L | HXB2 | HeLa + HELA CD4+ | ~1 |
| CC(C)C1=C2[C@H]3CC[C@@H]4[C@@]5(C)CC[C@H](OC(=O)[C@H]6C[C@@H](C(=O)O)C6(C)C)C(C)(C)[C@@H]5CC[C@@]4(C)[C@]3(C)CC[C@@]2([C@@H](O)CNCc2ccc(N3CCN(C)CC3)cc2)CC1=O | p24 / ELISA | EC50 | - | 92HT599 | MT-2 | <1 µM |
| Cc1cc(OCCCS(N)(=O)=O)ccc1NC(=O)COc1ccc(Cl)cc1C(=O)c1cc(F)cc(C(F)(F)F)c1 | β-galactosidase | fold resistance | RT-V106I | HXB2 | HeLa + HELA CD4+ | ~1 |
| CC(C)C1=C2[C@H]3CC[C@@H]4[C@@]5(C)CC[C@H](OC(=O)[C@H]6C[C@@H](C(=O)O)C6(C)C)C(C)(C)[C@@H]5CC[C@@]4(C)[C@]3(C)CC[C@@]2([C@@H](O)CNC(=O)C2(NC(=O)c3ccc(Cl)cc3)COC2)CC1=O | p24 / ELISA | EC50 | - | 92HT599 | MT-2 | <1 µM |
| COc1ccc(S(=O)(=O)N(CC(C)C)C[C@@H](O)CCN(CC2CCCC2)S(=O)(=O)C2CCS(=O)(=O)C2)cc1 | p24 | EC90 | - | IIIB | CEM | 1 µM |
| CC(C)C1=C2[C@H]3CC[C@@H]4[C@@]5(C)CC[C@H](OC(=O)[C@H]6C[C@@H](C(=O)O)C6(C)C)C(C)(C)[C@@H]5CC[C@@]4(C)[C@]3(C)CC[C@@]2(CCNCC2(N)CNC2)CC1=O | p24 / ELISA | EC50 | - | 92HT599 | MT-2 | <1 µM |
| COc1ccc(S(=O)(=O)N(CC(C)C)C[C@@H](O)CCN(CC2CCCC2)S(=O)(=O)c2nc3ccccc3o2)cc1 | p24 | EC90 | - | IIIB | CEM | 1 µM |
| Cc1cc(C#N)cc(C(=O)c2cc(Cl)ccc2OCC(=O)Nc2ccc(S(N)(=O)=O)nc2C)c1 | β-galactosidase | fold resistance | RT-K103N P225H | HXB2 | HeLa + HELA CD4+ | ~1 |
| CC(C)C1=C2[C@H]3CC[C@@H]4[C@@]5(C)CC[C@H](OC(=O)[C@H]6C[C@@H](C(=O)O)C6(C)C)C(C)(C)[C@@H]5CC[C@@]4(C)[C@]3(C)CC[C@@]2(CCNCC(C)(C)NC(=O)c2ccc(Cl)c(Cl)c2)CC1=O | p24 / ELISA | EC50 | - | 92HT599 | MT-2 | <1 µM |